# Laboratory results: paper PMC6691772, “Novel phthalimide based analogues: design, synthesis, biological evaluation, and molecular docking studies” (Journal of Enzyme Inhibition and Medicinal Chemistry, 2019)
# Experiments:
# S. pneumonia RCMB 010010 [1] = test: Agar well diffusion, inhibition zone; format: cell-based, Streptococcus pneumoniae; details: 1 mg/mL, mean of three values
# B. subtilis RCMB 010067 [2] = test: Agar well diffusion, inhibition zone; format: cell-based, Bacillus subtilis; details: 1 mg/mL, mean of three values
# [3] = test system: P. aeruginosa RCMB 010043; test: Agar well diffusion, inhibition zone; format: cell-based, Pseudomonas aeruginosa; details: 1 mg/mL, mean of three values
# E. coli RCMB 010052 = test: Agar well diffusion, inhibition zone; format: cell-based, Escherichia coli; details: 1 mg/mL, mean of three values
# S. pneumonia RCMB 010010 [4] = test: Minimum inhibitory concentration, modified agar well diffusion; format: cell-based, Streptococcus pneumoniae; details: mean of three values
# B. subtilis RCMB 010067 [5] = test: as above; format: cell-based, Bacillus subtilis; details: mean of three values
smiles,measurement,setting,value
C[C@@H]1[C@H](O)[C@@H](C)/C=C/C=C/C=C/C=C/C=C/C=C/C=C/[C@H](O[C@@H]2O[C@H](C)[C@@H](O)[C@H](N)[C@@H]2O)C[C@@H]2O[C@](O)(C[C@@H](O)C[C@@H](O)[C@H](O)CC[C@@H](O)C[C@@H](O)CC(=O)O[C@H]1C)C[C@H](O)[C@H]2C(=O)O,Mean diameter of inhibition zone (Mean ± SEM),S. pneumonia RCMB 010010 [1],–
same,Mean diameter of inhibition zone (Mean ± SEM),B. subtilis RCMB 010067 [2],–
same,Mean diameter of inhibition zone (Mean ± SEM),[3],–
same,Mean diameter of inhibition zone (Mean ± SEM),E. coli RCMB 010052,–
same,MIC (Mean ± SEM),S. pneumonia RCMB 010010 [4],0.98 ± 0.47 µg/mL
same,MIC (Mean ± SEM),B. subtilis RCMB 010067 [5],0.49 ± 0.36 µg/mL
